Measurements published in PubChem BioAssay AID651958 (The Scripps Research Institute Molecular Screening Center, 2012).
Only a part is listed here, and it is no random draw. Activity calls are given as the source filed them. Rule as the data show it: active = inhibition above about 30%; inactive = the rest.

These compounds were tested on Crimean-Congo hemorrhagic fever virus L polyprotein viral ovarian tumor (vOTU) protease domain (assay: CCHFV vOTU protease inhibitors, primary screen, biochemical, Pep-AMC substrate, fluorescence (AID 651958; also: 0% = vehicle wells with enzyme and 100% = no enzyme wells)). Settings: at 11.5 µM, stronger effect = higher value.
In the case of O=[N+]([O-])c1cc([N+](=O)[O-])c(-n2nnc3ccccc32)c([N+](=O)[O-])c1, the inhibition is reported as inactive: 3.18%. In the case of CN(Cc1cccnc1)C(=O)COc1ccc(Cl)c(Cl)c1.O=[N+]([O-])c1cc([N+](=O)[O-])c(O)c([N+](=O)[O-])c1, the inhibition is reported as inactive: 19.6%. In the case of O=[N+]([O-])c1cc([N+](=O)[O-])c(-c2cnn(-c3ccccc3)c2)c([N+](=O)[O-])c1, the inhibition is reported as inactive: 11.1%. Cc1nc2ccc3ccccc3c2s1.O=[N+]([O-])c1cc([N+](=O)[O-])c(O)c([N+](=O)[O-])c1 was tested, and the inhibition was active: 37.5%. For CCOC(=O)C(CC)C1=NC(C)(C)Cc2ccccc21.O=[N+]([O-])c1cc([N+](=O)[O-])c(O)c([N+](=O)[O-])c1 (configuration not stated), the inhibition was inactive: -0.22%. For O=[N+]([O-])c1cc([N+](=O)[O-])c(Nc2nnnn2CCO)c([N+](=O)[O-])c1, the inhibition was inactive: 9.46%. In the case of CN1CCCCC1COC(=O)C1(O)c2ccccc2CCc2ccccc21 (configuration not stated), the inhibition is reported as inactive: 6.3%. COc1ccccc1OP(C)(=O)Nc1c(C)cccc1C (configuration not stated) was tested, and the inhibition was inactive: -21.4%. In the case of CP(=O)(Nc1ccc(SC(F)(F)F)cc1)Oc1ccccc1 (configuration not stated), the inhibition is reported as inactive: 2.09%. In the case of CCCOc1ccc(NP(C)(=O)Oc2ccc(Cl)cc2)cc1 (configuration not stated), the inhibition is reported as inactive: 13.5%. For COc1ccc(-c2ccccn2)cc1.O=[N+]([O-])c1cc([N+](=O)[O-])c(O)c([N+](=O)[O-])c1, the inhibition was inactive: 10.8%. O=C(O)c1cccc(Nc2c([N+](=O)[O-])cc([N+](=O)[O-])cc2[N+](=O)[O-])c1 was tested, and the inhibition was inactive: 27.2%. With CC1=NCCc2c1[nH]c1ccccc21.O=[N+]([O-])c1cc([N+](=O)[O-])c(O)c([N+](=O)[O-])c1 the inhibition was inactive: 0.27%. COc1ccccc1OP(C)(=O)Nc1cccc(Br)c1 (configuration not stated) was tested, and the inhibition was inactive: 13%. For Cc1cc(C)cc(OP(C)(=O)Nc2ccc(C)cc2C)c1 (configuration not stated), the inhibition was inactive: 22.3%. CCOC(=O)c1ccc(NP(C)(=O)Oc2cc(C)cc(C)c2)cc1 (configuration not stated) was tested, and the inhibition was inactive: 2.64%. CP(=O)(Nc1cccc(Br)c1)Oc1ccccc1 (configuration not stated) was tested, and the inhibition was inactive: -3.97%. With Cc1cc(C)cc(OP(C)(=O)Nc2ccccn2)c1 (configuration not stated) the inhibition was inactive: -4.8%. Cc1ccc(C)c(NP(C)(=O)Oc2ccccc2)c1 (configuration not stated) was tested, and the inhibition was inactive: 1.1%. For CCN(CC)CCCOC(=O)C(O)(c1ccccc1)c1ccccc1, the inhibition was inactive: 6.2%. For COc1ccccc1-c1ccccn1.O=[N+]([O-])c1cc([N+](=O)[O-])c(O)c([N+](=O)[O-])c1, the inhibition was inactive: 6.79%. O=[N+]([O-])c1cc([N+](=O)[O-])c(Nc2cccnc2)c([N+](=O)[O-])c1 was tested, and the inhibition was inactive: 9.24%.
